Source: article PMC7843721
Construct, isoform or probe ends are uncertain for at least one entry. Where a protein sequence is shown, tags need not be part of it.

How the values were obtained:
MtrA = target: T1, MtrA (UniProt P9WGM7); test: EMSA; conditions: recombinant protein, protein details: 6xHis, label: 32P 5'-end, probe letters rebuilt from the primers and the genome
T1 sequence (looked up, limits assumed): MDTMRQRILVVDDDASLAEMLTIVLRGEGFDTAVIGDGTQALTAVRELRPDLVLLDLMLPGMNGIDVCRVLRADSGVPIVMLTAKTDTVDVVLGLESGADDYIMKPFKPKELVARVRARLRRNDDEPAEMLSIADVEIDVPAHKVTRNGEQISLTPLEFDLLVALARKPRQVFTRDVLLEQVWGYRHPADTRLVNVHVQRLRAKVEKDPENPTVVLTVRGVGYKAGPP

MtrA~P = target: T2, MtrA~P (UniProt P9WGM7); test: EMSA; conditions: recombinant protein; protein details: 6xHis; label: 32P 5'-end; probe letters rebuilt from the primers and the genome
T2 sequence (looked up, limits assumed): T1 sequence (looked up, limits assumed)

Sequence | binding result (MtrA; MtrA titration, 4 uM) | binding result (MtrA~P) | binding result (MtrA; 2 uM MtrA)
TTGCGCCCTTTCACCTCACGATGAGTTCGATCCCGTGGCTAGCGCCCCGCTAGCGTGGGGACTGCCAACGACGAATGCCCATGACGCGTGACCCGCCACGACGGCCGCAACAGCAGTCGAACAACAACCGTAGAGCTTCTCACGTCAACTTGAAAGTTCATCATTGACCTCTGACCCACCGCGACGAGCCAGTTATGCGGGTGGTATCCAGCGAACGATCCCCAGCGCTGTCTTTCCAAGAACAAACGACGAAGAAATCTCGGTAACAGTATTAGAGGGTGTGCAGTTTGGGGACAGTCTGGTCTTGGTGCAGGTCGACGTCGGTCGGAGTTGTGGATGACGGTGGCGATGACTGTGGGGTGTGTGTTGGGTCGGTGGGGATGAGGCGTGGGTTGTGAACGGAACCGCCGGGACTGTATGAGTCTGTGCGCGGTTTGTGCACAGCGACACTCACAGCCAATCTCTGTGACTGGTGTGACCTGGGAGAGAGAAGTTTTTTTAAGAACGTTGTCGGAAGAACACGCCGTGCTAGCGCTTGGAGCGCTGACGGATG (double strand) [oriC 526 bp] | binds | binds | –
GATCGTCGACCATCGGTGATTGGGTCTGATGAAGTTTGGTAAGTAGAGTCAACGCGCTATATCCCCGACCTCGGCAACACTCAACCACCTACACAGCGAACAAAAAGCAAAATGGGCCCTCCGAAACCTAGAGGCCCCACCCGTTCGATCACAAGACGGTAACGAACCGGCCAATGTTGAGCAACTCCGGCGCGCGGGTGTTATGGGCCGCTCGGCGCGCTCATTGGCGCATCCACCCTAGCCCATAAGCTCGGCGAGCGTTGCTTGTGGTGATGAGCGCCACCTCTTCGGGGCGCCGATTGACCAGTTCAGCCAGCGCCCGCACGGTATAGGGCAGGCAGTACGGTTCGTTCGCCAAGCCCCGGTGGGGATGCGGGGTCAAATACGGTGCATCGGTTTCCACCAAAAGCTGCTCCACCGGCATCAGCGGGACGGCTTCCCGTAGTTCACGGGCGGTACGGAGAATTCGATC (double strand) [rpfB promoter 440 bp] | – | binds | binds
